Experiments:
rPrP = rPrP (Mus musculus, UniProt P04925); conditions: 1 equiv of peptide added to Cu2+-rPrP; 100 µM 15N-rPrP, 25 mM MES, pH 6.6, 37 °C
[1] = test system: PrP^C and NMDARs in SK-N-SH cells; type: cell-based, human; conditions: n = 4–6

Chains of the proteins cited; added tags and fusions are not shown. Residues count along the entry.
UniProt P04925, 23-230 limits assumed: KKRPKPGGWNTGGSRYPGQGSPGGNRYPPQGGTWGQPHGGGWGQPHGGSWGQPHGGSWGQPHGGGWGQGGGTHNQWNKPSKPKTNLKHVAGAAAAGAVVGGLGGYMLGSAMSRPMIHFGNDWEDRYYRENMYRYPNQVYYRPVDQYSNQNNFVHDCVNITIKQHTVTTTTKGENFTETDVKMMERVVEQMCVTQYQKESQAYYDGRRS

Q: Which “Effect on the Cu2+-promoted cis-interdomain interaction of rPrP (PREs around His139 and His176)” value (rPrP) does the source give for NH2-EFRHDSGYEVHHQK-Am [Aβ(4–16)] here?
A: dramatically decreases the PREs

Q: What about the “Effect on colocalization of PrP^C and GluN2B (PCC)” value [1] of the same substance?
A: completely abolished colocalization

Source: publication PMC11741003 (ACS Chemical Neuroscience, 2024)
